Data: paper PMC5473844, “Structural and Biochemical Characterization of Poly-ADP-ribose Polymerase from Trypanosoma brucei”

Tests used:
[1] = target: T1, TBP-N (Trypanosoma brucei) (UniProt Q0PW89); assay: fluorescence polarization; settings: affinity essentially as TBP-FL, no clear stoichiometry; FP: 10 mM HEPES pH 8, 0.1 mM TCEP, 0.1 mM EDTA, 175 mM NaCl, 25 C, 5 nM DNA (250 nM for stoichiometry); recombinant protein; protein details: 6xHis tag removed with TEV; label: 5' FAM on strand 1
T1 sequence (looked up, limits assumed): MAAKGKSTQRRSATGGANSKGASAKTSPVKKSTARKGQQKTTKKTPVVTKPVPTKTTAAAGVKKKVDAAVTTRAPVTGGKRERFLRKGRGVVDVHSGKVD

[2] = target: T2, TBP-NW (Trypanosoma brucei) (UniProt Q0PW89); assay: fluorescence polarization; settings: affinity essentially as TBP-FL, no clear stoichiometry; FP: 10 mM HEPES pH 8, 0.1 mM TCEP, 0.1 mM EDTA, 175 mM NaCl, 25 C, 5 nM DNA (250 nM for stoichiometry); recombinant protein; protein details: 6xHis-thioredoxin tag removed with TEV; label: 5' FAM on strand 1
T2 sequence (looked up, limits assumed): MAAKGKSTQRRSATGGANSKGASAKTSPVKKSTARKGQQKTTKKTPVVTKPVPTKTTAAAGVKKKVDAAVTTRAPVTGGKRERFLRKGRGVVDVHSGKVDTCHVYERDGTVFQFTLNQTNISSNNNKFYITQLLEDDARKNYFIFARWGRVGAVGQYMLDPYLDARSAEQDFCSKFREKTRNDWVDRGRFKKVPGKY

[3] = target: T3, TBP-RA (Trypanosoma brucei) (UniProt Q0PW89); assay: fluorescence polarization; settings: FP: 10 mM HEPES pH 8, 0.1 mM TCEP, 0.1 mM EDTA, 175 mM NaCl, 25 C, 5 nM DNA (250 nM for stoichiometry); recombinant protein; protein details: 6xHis tag removed with TEV; label: 5' FAM on strand 1
T3 sequence (looked up, limits assumed): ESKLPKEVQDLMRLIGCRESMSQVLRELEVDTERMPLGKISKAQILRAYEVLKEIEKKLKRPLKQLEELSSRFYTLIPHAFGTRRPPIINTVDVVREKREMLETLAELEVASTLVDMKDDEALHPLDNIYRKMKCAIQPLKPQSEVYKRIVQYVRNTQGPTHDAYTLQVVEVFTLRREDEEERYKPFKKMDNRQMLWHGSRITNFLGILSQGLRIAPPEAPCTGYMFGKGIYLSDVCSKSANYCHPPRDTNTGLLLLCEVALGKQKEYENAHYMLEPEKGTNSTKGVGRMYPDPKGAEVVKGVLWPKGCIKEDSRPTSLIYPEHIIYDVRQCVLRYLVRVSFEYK

[4] = target: T4, TBP-WRA (Trypanosoma brucei) (UniProt Q0PW89); assay: fluorescence polarization; settings: affinity drops substantially; FP: 10 mM HEPES pH 8, 0.1 mM TCEP, 0.1 mM EDTA, 175 mM NaCl, 25 C, 5 nM DNA (250 nM for stoichiometry); recombinant protein; protein details: 6xHis-thioredoxin tag removed with TEV; label: 5' FAM on strand 1
T4 sequence (looked up, limits assumed): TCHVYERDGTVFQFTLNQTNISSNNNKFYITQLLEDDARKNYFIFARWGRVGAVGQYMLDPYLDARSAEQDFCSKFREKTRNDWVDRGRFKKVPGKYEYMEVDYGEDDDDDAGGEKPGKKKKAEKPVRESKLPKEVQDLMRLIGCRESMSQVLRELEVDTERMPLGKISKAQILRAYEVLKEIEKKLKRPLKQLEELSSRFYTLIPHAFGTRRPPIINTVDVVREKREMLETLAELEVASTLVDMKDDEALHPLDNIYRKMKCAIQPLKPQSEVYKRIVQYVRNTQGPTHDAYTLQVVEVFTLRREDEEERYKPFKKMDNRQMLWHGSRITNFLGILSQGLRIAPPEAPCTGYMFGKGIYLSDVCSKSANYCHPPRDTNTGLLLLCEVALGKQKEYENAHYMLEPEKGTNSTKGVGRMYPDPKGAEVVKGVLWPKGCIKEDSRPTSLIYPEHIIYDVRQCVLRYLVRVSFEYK

[5] = target: T3, TBP-RA (Trypanosoma brucei); assay: EMSA; settings: almost completely abolished; EMSA: 50 mM Tris pH 7, 0.1 mM TCEP, 0.1 mM EDTA, 5% glycerol, 100 mM NaCl, room temperature, 0.5 uM DNA; recombinant protein; protein details: 6xHis tag removed with TEV
[6] = target: T4, TBP-WRA (Trypanosoma brucei); assay: EMSA; settings: EMSA: 50 mM Tris pH 7, 0.1 mM TCEP, 0.1 mM EDTA, 5% glycerol, 100 mM NaCl, room temperature, 0.5 uM DNA; recombinant protein; protein details: 6xHis-thioredoxin tag removed with TEV

Row | Sequence | binding result [1] | binding result [2] | binding result [3] | binding result [4] | binding result [5] | binding result [6]
1 | CAGCAGGTACCTGCCCGGCGCCCAGAGAGGAATGCAACACTC (double strand) [template 20] | binds | binds | no binding | binds more weakly |  | 
2 | CCAGGACCAGGGCGCAGATCACCTTGTTCTCCA (double strand) [template 1] |  |  |  |  | binds more weakly | binds more weakly

Construct, isoform or probe ends are uncertain for at least one entry. For part of these data: A negative result means that nothing was seen under these conditions. For part of these data: At least one verdict rests on a figure or table, not on a statement of the authors. Protein sequences can lack the tags named with them. For part of these data: The comparison behind a weaker result is the experiment's own reference, which may not be listed here.
